Source: patent publication US20070054262A1, “Methods of identifying optimal variants of peptide epitopes” (priority 2003, published 2007)

Tested on: Env 134-specific T cell line
Experiment: Env 134-specific T cell line (stimulated five times with the immunizing peptide): recognition and titration of variant peptides
Type: cell-based, mouse
Details: Env 134 line; IFN-γ
Source text: Recognition after multiple restimulations The observed recognition of variant peptides by CTL raised against the parent peptide might be due to either promiscuous recognition at the level of a single TCR or simply a mixture of TCRs against the immunizing peptide which are each able to recognize subtly different peptides. To distinguish between these two possibilities, Env 134- or Gag 386-specific T cell lines were generated by stimulating five times with the immunizing peptide, and then tested for recognition of a partial panel of variant peptides. These T cell lines were also characterized for Vβ TCR usage against a panel of antibodies predicted to react with the TCR of the mouse strains utilized for these experiments.
Because the SU is a measure of the number of cells needed to secrete a defined amount of IFN-γ, a higher SU value would correspond to an enrichment of IFN-γ, producing cells.
Both lines were also characterized with regard to the affinity of certain of the variant peptides by titrating the variant peptides examined above (Table 5A and 5B).

KLTPLCVTL [Env 134]
Peptide affinity for the TCR (titration against CTL stimulated 5 times with the parent peptide): highest affinity
